Experimental data as given in article PMC9388137, “Reversible structural changes in the influenza hemagglutinin precursor at membrane fusion pH” (2022).

Target: X-31 HA0 R329Q mutant, foldon and His tag removed with trypsin (influenza A virus X-31)
Assay: SEC

“X-31 HA0 R329Q mutant, foldon and His tag removed with trypsin (natural protein)” gave a stoichiometry N of 3.
